Compound potency records, mixed from different reports. Data source: NIAID ChemDB in PubChem.

All rows: whole-cell or culture tests; species: Aspergillus niger; read-out: zone

Zones are inhibition diameters on agar.

smiles | dose | strain or isolate | method | result
CN[C@@H]1[C@@H](O)[C@@H](O[C@@H]2[C@@H](O)[C@H](O[C@H]3O[C@H](CN)CC[C@H]3N)[C@@H](N)C[C@H]2N)OC[C@]1(C)O | 100 µg/mL |  | agar diffusion | 25 mm
CC(C)CCCCCOC(=O)c1ccccc1C(=O)OCCCCCC(C)C | 50000 µg/mL |  | agar diffusion / agar | 0.45 mm
Cc1ccc(N2NOC(=O)C2S(=O)(=O)Nc2nc(-c3ccc(F)cc3F)cs2)cc1 | 250 µg/mL | MTCC 282 | agar diffusion | 22 mm
O=C(O)c1cc(O)c(O)c(O)c1 | 10000 µg/mL |  | agar diffusion / agar | 0 mm
Cc1nc(Nc2ccccc2)nc(C)c1Br | 50 µg/mL |  |  | 2.1 mm
O=C1NC(=O)C(=Cc2cn(-c3ccccc3)nc2-c2cc3ccc4ccccc4c3oc2=O)C(=O)N1 | 150 µg |  | agar diffusion / agar | 0 mm
C(/C=C/c1ccccc1)=NCCNCCN=C/C=C/c1ccccc1.[Cl][Hg][Cl] | 30000 µg/mL |  | agar diffusion | 28 mm
Cc1ccc(N2NOC(=O)C2S(=O)(=O)Nc2ccc(-n3c(-c4cccc([N+](=O)[O-])c4)nc4ccccc4c3=O)cc2)cc1 | 250 µg/mL | MTCC 282 | agar diffusion | 23 mm
O=C1NC(=O)C(=Cc2cn(-c3ccccc3)nc2-c2cc3cc(Cl)ccc3oc2=O)C(=O)N1 | 100 µg |  | agar diffusion / agar | 0 mm
COc1ccc2nc(NS(=O)(=O)C3C(=O)ONN3c3ccc(C)cc3)sc2c1 | 250 µg/mL | MTCC 282 | agar diffusion | 19 mm
Cc1cc(C)nc(Nc2ccccc2)n1 | 50 µg/mL |  |  | 2.9 mm
CCCCC(CC)COC(=O)c1ccccc1C(=O)OCC(CC)CCCC | 50000 µg/mL |  | agar diffusion / agar | 1.25 mm
C(/C=C/c1ccccc1)=NCCNCCN=C/C=C/c1ccccc1.[Br][Hg][Br] | 10000 µg/mL |  | agar diffusion | 22 mm
CC(=O)Oc1c(-c2ccco2)oc2ccc(Cl)cc2c1=O | 100 µg/mL |  | agar diffusion | 25 mm
CC1(C)CCCC2(C)OCCC=C12 | 10000 µg/mL |  | agar diffusion / agar | 0.63 mm
O=c1c(O)c(-c2ccccc2)oc2ccc(Cl)cc12 | 100 µg/mL |  | agar diffusion | 15 mm
c1ccc2ccccc2c1 | 10000 µg/mL |  | agar diffusion / agar | 0.45 mm
Cc1ccc(N2NOC(=O)C2S(=O)(=O)Nc2nc(-c3ccc(Cl)cc3)cs2)cc1 | 250 µg/mL | MTCC 282 | agar diffusion | 23 mm
O=C1NC(=S)NC(=O)C1=Cc1cn(-c2ccccc2)nc1-c1cc2ccc3ccccc3c2oc1=O | 100 µg |  | agar diffusion / agar | 0 mm
O=c1c(O)c(-c2ccc(Cl)cc2)oc2ccccc12 | 100 µg/mL |  | agar diffusion | 15 mm
Cc1ccc(N2NOC(=O)C2S(=O)(=O)Nc2nc(-c3ccc([N+](=O)[O-])cc3)cs2)cc1 | 250 µg/mL | MTCC 282 | agar diffusion | 21 mm
O=C1NC(=S)NC(=O)C1=Cc1cn(-c2ccccc2)nc1-c1cc2cc(Br)cc(Br)c2oc1=O | 150 µg |  | agar diffusion / agar | 0 mm
O=c1c(O)c(-c2ccc(F)cc2)oc2ccccc12 | 100 µg/mL |  | agar diffusion | 18 mm
CC(=O)N(c1ccccc1)c1nc(C)cc(C)n1 | 10 µg/mL |  |  | 2.1 mm
Cc1ccc(N2NOC(=O)C2S(=O)(=O)Nc2ccc(-n3c(-c4ccc(Cl)cc4)nc4ccccc4c3=O)cc2)cc1 | 250 µg/mL | MTCC 282 | agar diffusion | 24 mm
O=c1c(O)c(-c2ccco2)oc2ccccc12 | 100 µg/mL |  | agar diffusion | 17 mm
O=C1NC(=O)C(=Cc2cn(-c3ccccc3)nc2-c2cc3cc(Br)ccc3oc2=O)C(=O)N1 | 100 µg |  | agar diffusion / agar | 14 mm
Cc1nc(C)c(CC(O)c2ccc(Cl)cc2)nc1C | 50000 µg/mL |  | agar diffusion / agar | 1.43 mm
COc1ccc(-c2oc3ccc(Cl)cc3c(=O)c2OC(C)=O)cc1 | 100 µg/mL |  | agar diffusion | 22 mm

The first 3 rows once more:

smiles	dose	strain or isolate	method	result
CN[C@@H]1[C@@H](O)[C@@H](O[C@@H]2[C@@H](O)[C@H](O[C@H]3O[C@H](CN)CC[C@H]3N)[C@@H](N)C[C@H]2N)OC[C@]1(C)O	100 µg/mL		agar diffusion	25 mm
CC(C)CCCCCOC(=O)c1ccccc1C(=O)OCCCCCC(C)C	50000 µg/mL		agar diffusion / agar	0.45 mm
Cc1ccc(N2NOC(=O)C2S(=O)(=O)Nc2nc(-c3ccc(F)cc3F)cs2)cc1	250 µg/mL	MTCC 282	agar diffusion	22 mm

Blank or dashed fields: not listed here. Neighbouring rows are from separate reports.